Data set [1] deals with His-Lon-His (Lon protease) (Burkholderia glumae BGR1). Description: EMSA. To be noted: 0.5 uM Lon, LightShift chemiluminescent EMSA (Pierce), biotin-labelled DNA, pH and temperature not given (as in Kim et al. 2007), recombinant protein, protein details: N- and C-terminal His (from the name), label: biotin.
The subject of data set [2] is GluR-His (Burkholderia glumae BGR1). Put plainly: EMSA. The settings on record: LightShift chemiluminescent EMSA (Pierce), biotin-labelled DNA; pH and temperature not given (as in Kim et al. 2007); recombinant protein; protein details: His tag; label: biotin.

The exact form of at least one protein or probe is not confirmed.

As for “ACCTCTGGTACTTGAACGAACCCGGCGAATATCGGGCGAACGAACTACGAAAAATCGGGTGGGTGGAGTATCCACTGAATTTCCGCGCCAAGTAAAGGAGTGTCTAACGAGCGGCTTTACTCAACATCGCAGCACGGGTAAATTTTGTAACCGACTGTTACTCGCAAAATCCCGCGCCCGTGCGCCCCTTCGTAATCGCGATAAGATGCCGCCCATGGA (double strand) [gluR putative promoter region]”, the binding result in data set [1] (1 nM labelled DNA, 50 nM unlabelled specific competitor) was “binds”.

Take “TGAGCGCGTTCACCTCGCAATTCCAGGCCTGGGCCGATGCCGCGCGCGACGGCGCCGCTCATACAAAGTGAGGTTTCGTGCGCCAAAAGTGCCGCGCGCGCGAGGCAGGCCGGCAAGAAGTTCGCCTGAGCAATCATGAGACTCGCACGAGGCCGTGCCCCGCCGTGCGCGAATCTCAAATCGGCATCATTGCTGAAGATTGCTCAGCCAAACTGAGAGTTCGAAAACGAGGCCCCGACTACATTGCTCGAACTGCGCCGCGATCCGGTGCCCAGGCAACAGCAAGGAGAGTCGCCTCATG (double strand) [hrpB putative promoter region]”: the binding result is “binds” in data set [2] and “binds” in data set [1] (0.5 nM labelled DNA, 25 nM unlabelled specific competitor).

The values above are taken from paper PMC9452761.
